According to PubChem BioAssay AID588824 (The Scripps Research Institute Molecular Screening Center, 2011):
The entries are a selection whose mix differs from that of the whole data set. Activity calls are given as the source filed them. No stated cut-off is given here; in the data, active means inhibition above about 25%; inactive means the rest.

Assay: repression of VP16-driven luciferase reporter – cell-based, luminescence, high throughput, counter-screen for SRC1 inhibitor project (AID 588824)
Conditions: cell-based VP16 transactivation luciferase luminescence; at 3.6 µM; stronger effect = higher value

| SMILES | inhibition |
| --- | --- |
| O=c1[nH]c2ccccc2n1C1CCN(C(c2ccccc2)c2nnnn2C2CCCCC2)CC1 (configuration not stated) | inactive: -6.22% |
| COc1cccc(C(c2nnnn2C2CCCCC2)N2CCC(n3c(=O)[nH]c4ccccc43)CC2)c1OC (configuration not stated) | inactive: -0.5% |
